Patent US20230304010A1, “COMPOSITIONS AND METHODS FOR TREATING VIRAL INFECTIONS” (priority 2020, published 2023)

Key:
ACE2, Q9BYF1 [1] = assay: inhibitor screening kit; ACE2:SARS-CoV-2 Spike (Example 4 assay)
ACE2, Q9BYF1 [2] = assay: inhibitor screening kit; SARS-CoV-2 Spike:ACE2 (Example 3 assay)
[3] = molecular target: SARS-CoV-2 Spike (SARS-CoV-2), P0DTC2; assay: inhibitor screening kit; ACE2:SARS-CoV-2 Spike (Example 4 assay)
[4] = molecular target: SARS-CoV-2 Spike (SARS-CoV-2), P0DTC2; assay: inhibitor screening kit; SARS-CoV-2 Spike:ACE2 (Example 3 assay)

Binder | IC50 (ACE2, Q9BYF1 [1]) | IC50 (ACE2, Q9BYF1 [2]) | IC50 [3] | IC50 [4]
SKVGGNYNYLYR (modifications not checked) [Seq1 (LNCOV-01)] | > 10 µM | > 10 µM |  | 
KVGGNYNYL (modifications not checked) [Seq2 (LNCOV-0)] | > 10 µM | > 10 µM |  | 
GNYNYLYRL (modifications not checked) [seq3 (LNCOV-1)] | > 10 µM | > 10 µM |  | 
GGNYNYLYRLFRK (modifications not checked) [Seq4 (LNCOV-2)] | > 10 µM | > 10 µM |  | 
STEYQAGST (modifications not checked) [Seq5 (LNCOV-3)] | > 10 µM | > 10 µM |  | 
CNGVEGFNC (modifications not checked) [Seq6 (LNCOV-4)] | > 10 µM | > 10 µM |  | 
VEGFNCYFP (modifications not checked) [Seq7 (LNCOV-5)] | > 10 µM | > 10 µM |  | 
YFPLQSYGFQPTNGVGYQ (modifications not checked) [Seq8 (LNCOV-6)] | > 10 µM | > 10 µM |  | 
SYGFQPTNGV (modifications not checked) [Seq9 (LNCOV-7)] | > 10 µM | > 10 µM |  | 
GFQPTNGVK (modifications not checked) [Seq10 (LNCOV-8)] | > 10 µM | > 10 µM |  | 
TNGVGYQPY (modifications not checked) [Seq11 (LNCOV-9)] | > 1 µM |  |  | 
NMTQGFWENPGGPTAWDLGKLWRALWRLWRSLWRLLWK (modifications not checked) [Seq38 (LNCOV-30)] |  |  | 0.103 µM | 0.214 µM
